Anti-infective test results gathered from many reports (values: NIAID ChemDB through PubChem).

All rows: cytotoxicity tests; cell line: MT-4; measure: CC50

Rows are shuffled and stem from different studies.

Cc1cc(C)cc(CN2C(C)C(=O)Nc3ccc(Cl)cc3S2(=O)=O)c1 ; method: MTT ; result: >200 µM
c1cc(CN2CCCNCCNCCCNCC2)ccc1CN1CCCNCCNCCCNCC1 ; result: >250 µM
CCC(Cc1ccccc1)c1cc(O)c(C(c2cccc(NC(=O)[C@H](Cc3cn(S(=O)(=O)c4ccc(C)cc4)cn3)NC(=O)OC(C)(C)C)c2)C2CC2)c(=O)o1 ; result: >30 µM
c1cc(CNCCCN2CCCC2)ccc1CCNCCCN1CCOCC1 ; method: MTT ; result: >64.34 µM
COC(=O)[C@@H](CCSC)NP(=O)(OC[C@H]1C=C[C@@H](n2cnc3c(N)ncnc32)C1)Oc1ccccc1 ; method: trypan blue ; result: 133 µM
COC(=O)c1cn(C)c2cc(Oc3ccnc(Nc4ccc(C#N)cc4)n3)c(Br)cc2c1=O ; method: MTT ; result: 159 µM
CCOC(=O)CNS(=O)(=O)c1cc(Cl)ccc1[N+](=O)[O-] ; method: MTT ; result: >73 µM
COC(=O)[C@H](CCSC)NP(=O)(OC[C@H]1C=C[C@@H](n2cnc3c(N)ncnc32)C1)Oc1ccccc1 ; method: trypan blue ; result: 34.7 µM
C1CNCCNCCCNCCNC1 ; result: 950 µM
CC[C@H](C)[C@H](NP(=O)(OC[C@H]1C=C[C@@H](n2cnc3c(N)ncnc32)C1)Oc1ccccc1)C(=O)OC ; method: trypan blue ; result: 99.6 µM
c1cc(CN2CCCNCCNCCCNCC2)sc1CN1CCCNCCNCCCNCC1 ; method: MTT ; result: >500 µg/mL
CC(C)OC(=O)[C@H](C)NP(=O)(OC[C@H]1C=C[C@@H](n2cnc3c(N)ncnc32)C1)Oc1ccccc1 ; method: MTS ; result: 100 µM
c1cc(CCNCCCN2CCCCC2)ccc1CCNCCCN1CCCCC1 ; method: MTT ; result: 113 µM
CC(C)Cn1cc(C(=O)O)c(=O)c2cc(Br)c(Oc3ccnc(Nc4ccc(C#N)cc4)n3)cc21 ; method: MTT ; result: 21.07 µM
CC=CCN1C(C)C(=O)Nc2ccc(Cl)cc2S1(=O)=O ; method: MTT ; result: >200 µM
COC(=O)[C@H](C)NP(=O)(OC[C@H]1C=C[C@@H](n2cnc3c(N)ncnc32)C1)Oc1ccccc1 ; method: trypan blue ; result: 16.4 µM
CCCn1cc(C(=O)O)c(=O)c2cc(Br)c(Oc3ccnc(Nc4ccc(C#N)cc4)n3)cc21 ; method: MTT ; result: 18.16 µM
O=C(OCC1OC(Sc2nc3cc(Cl)c(Cl)cc3[nH]2)C(OC(=O)c2ccccc2)C1OC(=O)c1ccccc1)c1ccccc1 ; result: >100 µM
C=C(C)CN1C(C)C(=S)Nc2ccc(Cl)cc2S1(=O)=O ; method: MTT ; result: 47 µM
C1CNCCNCC(C2CNCCNCCCNCCNC2)CNCCNC1 ; result: 54 µg/mL
Cc1c(C(C)C)s/c(=N\S(=O)(=O)c2cccc([N+](=O)[O-])c2)n1C ; method: MTT ; result: >25 µM
C1CNCCNCC(CCCC2CNCCNCCCNCCNC2)CNCCNC1 ; result: 120 µM
Cc1cn([C@H]2C[C@@H](N=[N+]=[N-])[C@@H](CO)O2)c(=O)[nH]c1=O ; method: MTT ; result: >93 µM
C[C@H](NP(=O)(OC[C@H]1C=C[C@@H](n2cnc3c(N)ncnc32)C1)Oc1ccccc1)C(=O)OC(C)(C)C ; method: trypan blue ; result: 84.9 µM
CCC(Cc1ccccc1)c1cc(O)c(C(c2cccc(NC(=O)[C@@H](C)NC(=O)OC(C)(C)C)c2)C2CC2)c(=O)o1 ; result: >>30 µM
O=C(Cc1ccc(CC(=O)NCCCN2CCCCC2)cc1)NCCCN1CCCCC1 ; method: MTT ; result: >282 µM
COC(=O)C[C@H](NP(=O)(OC[C@H]1C=C[C@@H](n2cnc3c(N)ncnc32)C1)Oc1ccccc1)C(=O)OC ; method: trypan blue ; result: 53.5 µM
O=C(Cc1ccc(CC(=O)NCCN2CCCC2)cc1)NCCN1CCCC1 ; method: MTT ; result: >323 µM
COC(=O)[C@H](C)NP(=O)(OC[C@H]1C=C[C@@H](n2cnc3c(N)ncnc32)C1)Oc1ccc(Cl)cc1 ; method: trypan blue ; result: 3.43 µM
Cc1ccccc1CN1C(C)C(=S)Nc2ccc(Cl)cc2S1(=O)=O ; method: MTT ; result: ≥200 µM
CCC(C)n1cc(C(=O)O)c(=O)c2cc(I)c(Oc3ccnc(Nc4ccc(C#N)cc4)n3)cc21 ; method: MTT ; result: 4.99 µM
Cc1cn([C@H]2C[C@H](N(C)O)[C@@H](CO)O2)c(=O)[nH]c1=O ; result: 181 µg/mL
c1cc(CN2CCCNCCNCCCNCC2)ccc1CN1CCCNCCNCCNCCC1 ; method: MTT ; result: >500 µg/mL
C(CCC1CNCCNCCCNCCNC1)CCC1CNCCNCCCNCCNC1 ; result: 200 µM
COC(=O)c1c(C(C)C)s/c(=N\S(=O)(=O)c2cccc([N+](=O)[O-])c2)n1C ; method: MTT ; result: >25 µM
Cc1cn([C@H]2C[C@@H]3[C@@H](COCN3O)O2)c(=O)[nH]c1=O ; result: 158 µg/mL
O=C(OC[C@H]1O[C@@H](n2c(=S)[nH]c3cc(Cl)c(Cl)cc32)C(OC(=O)c2ccccc2)C1OC(=O)c1ccccc1)c1ccccc1 ; result: >100 µM
CN1CCN(CCCNC(=O)Cc2ccc(CC(=O)NCCCN3CCN(C)CC3)cc2)CC1 ; method: MTT ; result: >264 µM
CCn1cc(C(=O)O)c(=O)c2cc(I)c(Oc3ccnc(Nc4ccc(C#N)cc4)n3)cc21 ; method: MTT ; result: 12.96 µM
Cc1cs/c(=N\S(=O)(=O)c2cccc([N+](=O)[O-])c2)n1C ; method: MTT ; result: >25 µM
OC[C@H]1O[C@@H](Sc2nc3cc(Cl)c(Cl)cc3[nH]2)C(O)C1O ; result: >100 µM
CCn1cc(C(=O)O)c(=O)c2cc(Br)c(Oc3ccnc(Nc4ccc(C#N)cc4)n3)cc21 ; method: MTT ; result: 20.46 µM
Cc1cn([C@H]2C[C@H](N=[N+]=[N-])[C@@H](CO)O2)c(=O)[nH]c1=O ; method: ATP / luminescence ; result: >0.1 µM
CC1CCCCN1CCCNCc1ccc(CCNCCCN2CCOCC2)cc1 ; method: MTT ; result: >60 µM
Cc1nc(NS(=O)(=O)c2cccc([N+](=O)[O-])c2)sc1C(C)(C)C ; method: MTT ; result: >25 µM
C1CNCCNCCCN[C@H]([C@H]2CNCCCNCCNCCCN2)CNC1 ; result: 299 µg/mL
COc1cc(O)c2c(=O)c3cc(OC)ccc3oc2c1 ; method: ATP / luminescence ; result: >10 µM
c1cc(CNCCCN2CCCC2)ccc1CNCCCN1CCCC1 ; method: MTT ; result: 90.4 µM

Again, the opening 7 rows:

structure	method	result
Cc1cc(C)cc(CN2C(C)C(=O)Nc3ccc(Cl)cc3S2(=O)=O)c1	MTT	>200 µM
c1cc(CN2CCCNCCNCCCNCC2)ccc1CN1CCCNCCNCCCNCC1		>250 µM
CCC(Cc1ccccc1)c1cc(O)c(C(c2cccc(NC(=O)[C@H](Cc3cn(S(=O)(=O)c4ccc(C)cc4)cn3)NC(=O)OC(C)(C)C)c2)C2CC2)c(=O)o1		>30 µM
c1cc(CNCCCN2CCCC2)ccc1CCNCCCN1CCOCC1	MTT	>64.34 µM
COC(=O)[C@@H](CCSC)NP(=O)(OC[C@H]1C=C[C@@H](n2cnc3c(N)ncnc32)C1)Oc1ccccc1	trypan blue	133 µM
COC(=O)c1cn(C)c2cc(Oc3ccnc(Nc4ccc(C#N)cc4)n3)c(Br)cc2c1=O	MTT	159 µM
CCOC(=O)CNS(=O)(=O)c1cc(Cl)ccc1[N+](=O)[O-]	MTT	>73 µM

An empty or dashed field is not shown. CCn: concentration that lowers growth or viability of the cells by n%.